# Reference: PubChem BioAssay AID720542 (National Center for Advancing Translational Sciences (NCATS), 2013)
# The list shows a part of the results, in another mix than the full data. The source made the active and inactive calls. The call rests on the fitted dose curve; in most records, active means well fitted inhibition curve with a large enough effect; inconclusive means small, poorly fitted or top-dose-only effect; inactive means no such curve, though single readings can be large or run the other way.
# Test system: Plasmodium falciparum AMA1 (3D7) - RON2 peptide interaction
# Experiment: qHTS for Inhibitors of AMA1-RON; Towards Development of Antimalarial Drug Lead: Primary Screen;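 further: 0% = vehicle wells and -100% = peptide control; nearly all actives have a fitted effect of over 45% in size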
# Details: AlphaScreen AMA1-biotinylated RON2 peptide binding; at 58.2 µM (top of the series) unless noted
row,SMILES,"activity change, negative = inhibition"
1,N#Cc1ccc(C(=O)NCC2(N3CCCCC3)CCCCC2)cc1,inactive: 3.6%
2,CC(C)(C)OC(=O)N1CCC(N(C(=O)c2ccccc2)c2ccc(Cl)cc2)CC1,inactive: -9.21%
3,CCOC(=O)C(CC)C1=NC(C)(C)Cc2ccccc21.O=[N+]([O-])c1cc([N+](=O)[O-])c(O)c([N+](=O)[O-])c1 (stereo not given),inactive: -6.52%
4,CN(C)C1(CNC(=O)c2cccc(C#N)c2)CCCCC1,inactive: 27.1%
5,c1ccc(CN2CCC(Nc3ccccc3)CC2)cc1,inactive: -2.47%
6,O=c1[nH]c2ccccc2n1C1CCN(C(c2ccccc2)c2nnnn2C2CCCC2)CC1 (stereo not given),inactive: -9.38%
7,CCCN1CCC(Nc2cc(OC)cc(OC)c2)CC1,inactive: -6.26%
8,Cc1cc(N(CCCl)CCCl)ccc1C=O,inactive: 5.24%
9,CC(C)(C)n1nnnc1C(c1cccc2ccccc12)N1CCC(n2c(=O)[nH]c3ccccc32)CC1 (stereo not given),inactive: -22.5%
10,CCCCn1nnnc1C(c1ccccc1)N1CCC(n2c(=O)[nH]c3ccccc32)CC1 (stereo not given),inactive: 0.387%
11,COc1cc(C(=O)NCC2(N3CCOCC3)CCCCC2)cc(OC)c1C,inactive: -8.51%
12,O=C(NCC1(N2CCOCC2)CCCCC1)c1cc(Br)ccc1Cl,inactive: 4.04%
13,O=c1[nH]c2ccccc2n1C1CCN(C(c2cccs2)c2nnnn2C2CCCCC2)CC1 (stereo not given),inactive: -23.7%
14,COc1ccc(C(=O)NCC2(N3CCOCC3)CCCCC2)cc1OC,inactive: 12.8%
15,O=c1[nH]c2ccccc2n1C1CCN(C(c2ccnc3ccccc23)c2nnnn2C2CCCC2)CC1 (stereo not given),inactive: -6.74%
16,COc1cccc(C(c2nnnn2C(C)(C)C)N2CCC(n3c(=O)[nH]c4ccccc43)CC2)c1OC (stereo not given),inactive: -1.66%
17,CCOC(=O)N1CCC(Nc2ccc(C)cc2)CC1,inactive: -17.5%
18,N/C(=N\O)c1c(N)no[n+]1[O-],inactive: 2.87%
19,O=C(OC1CN2CCC1CC2)C1c2ccccc2C=Cc2ccccc21 (stereo not given),inactive: 4.33%
20,CCc1cc(C(=O)NCC2(N3CCCCC3)CCCCC2)sc1C,inactive: 13.6%
21,O=c1[nH]c2ccccc2n1C1CCN(C(c2cccs2)c2nnnn2C2CCCC2)CC1 (stereo not given),inactive: -17.1%
22,O=C(O)c1cccc(Nc2c([N+](=O)[O-])cc([N+](=O)[O-])cc2[N+](=O)[O-])c1,inactive: -2.59%
23,CCCCn1nnnc1C(c1cccc(OC)c1OC)N1CCC(n2c(=O)[nH]c3ccccc32)CC1 (stereo not given),inactive: -12.4%

row,SMILES,"activity change, negative = inhibition"
1,CCOc1ncccc1C(=O)NCC1(N2CCOCC2)CCCCC1,inactive: -18.1%
2,CN1CCC(Nc2ccc(F)c(Cl)c2)CC1,inactive: 6.21%
3,CC(C)(C)OC(=O)N1CCC(Nc2ccccc2)CC1,inactive: 7.02%
4,O=C(O)C1(Nc2ccccc2)CCN(Cc2ccccc2)CC1,inactive: -1.54%
5,CCCOc1ccc(C(=O)NCC2(N(C)C)CCCCC2)cc1,inactive: -0.172%
6,O=c1[nH]c2ccccc2n1C1CCN(C(c2cc3ccccc3o2)c2nnnn2C2CCCC2)CC1 (stereo not given),inactive: -28.2%
7,COc1cc(OC)cc(C(=O)NCC2(N3CCOCC3)CCCCC2)c1,inactive: 13.8%
8,COc1cccc(C(c2nnnn2C2CCCC2)N2CCC(n3c(=O)[nH]c4ccccc43)CC2)c1OC (stereo not given),inactive: -19.7%
9,COc1cccc(C(=O)N(c2cc(C)cc(C)c2)C2CCN(C(=O)OC(C)(C)C)CC2)c1,inactive: -1.87%
10,CCC(CO)(C(=O)OC1CN2CCC1CC2)c1ccccc1 (stereo not given),inactive: 7.49%
11,CN1CCC(Nc2ccc(Cl)cc2)CC1,inactive: -0.612%
12,CC(=O)N(c1ccccc1)C1CCNCC1,inactive: 15.3%
13,COc1cccc(C(c2nnnn2C2CCCCC2)N2CCC(n3c(=O)[nH]c4ccccc43)CC2)c1OC (stereo not given),inactive: -26.3%
14,CCC(c1nnnn1C1CCCCC1)N1CCC(n2c(=O)[nH]c3ccccc32)CC1 (stereo not given),inactive: -25.6%
15,O=c1[nH]c2ccccc2n1C1CCN(C(c2ccnc3ccccc23)c2nnnn2C2CCCCC2)CC1 (stereo not given),inactive: -12.1%
16,COc1cc(OC)cc(C(=O)NCC2(N3CCCCC3)CCCCC2)c1,inactive: -2.88%
17,Cc1ccc(C(=O)NCC2(N3CCCCC3)CCCCC2)o1,inactive: 20.1%
18,Fc1ccccc1NC1CCN(Cc2ccccc2)CC1,inactive: 2.79%
19,Cc1ccc(NC2(C#N)CCN(Cc3ccccc3)CC2)cc1,inactive: 24.1%
20,Cc1ccccc1NC1(C#N)CCN(Cc2ccccc2)CC1,inactive: -6.1%
21,CC(C)(C)n1nnnc1C(c1ccnc2ccccc12)N1CCC(n2c(=O)[nH]c3ccccc32)CC1 (stereo not given),inactive: -0.399%
22,COc1ccc(C(c2nnnn2C2CCCCC2)N2CCC(n3c(=O)[nH]c4ccccc43)CC2)cc1 (stereo not given),inactive: -0.314%
